Pooled drug test results. Numbers come from NIAID ChemDB, via PubChem.

Common to all: tests on isolated targets; organism: HIV-1; target: Protease; measure: IC50

Neighbouring rows are from separate reports.

smiles | read by | conditions | value
CC(O)[C@H](NC(=O)CCCCCCCCCCCCCCC(=O)N[C@@H](CS(C)(=O)=O)C(=O)N[C@@H](Cc1ccccc1)C(=O)O)C(=O)N[C@H](C(=O)N[C@@H](Cc1ccccc1)C(N)=O)C1CCCCC1 | HPLC | - | 0.58 µM
CC(C)=CCc1ccc2c(C3=C(O)C(=O)C(c4c[nH]c5cc(CC=C(C)C)ccc45)=C(O)C3=O)c[nH]c2c1 | - | - | 0.18 µM
COC(=O)[C@@H](NC(=O)C[C@H]1CC[C@H](O)[C@H]1NC(=O)[C@H](C)NC(=O)OC(C)(C)C)C(C)C | absorbance | - | >10 µM
COc1ccc(C(O)C(C)Oc2ccc([C@H]3O[C@H](c4ccc(OC(C)C(O)c5ccc6c(c5)OCO6)c(OC)c4)[C@H](C)[C@H]3C)cc2OC)cc1OC | HPLC | - | >125 µM
CC(C)c1ccccc1Sc1c(O)cc(-c2ccc(OCc3cccnc3)cc2)oc1=O | HPLC | pH 4.7 | 0.068 µM
CC(=O)NC(C(=O)NC[C@H]1O[C@@H](Oc2ccccc2)[C@H](O)[C@@H](OCc2ccccc2)[C@@H]1OCC(C)C)C(C)C | - | - | >100 µM
O=C(CCc1ccccc1)N1C[C@@H](O)[C@@H](Cc2ccccc2)N(Cc2ccccc2)C(=O)N1Cc1ccc2[nH]ncc2c1 | fluorescence | pH 7.0 | <0.0005 µM
CC[C@H](C)[C@H](NC(=O)OC(C)(C)C)C(=O)N[C@H]1CC[C@@H](CC(=O)N[C@@H](CC(C)C)C(=O)OC)[C@@H]1O | absorbance | - | >10 µM
O=C(N[C@@H](Cc1ccccc1)C(=O)NC[C@@H](CO)NC(=O)[C@H](Cc1ccccc1)NC(=O)OCc1ccccc1)OCc1ccccc1 | HPLC | - | 5.7 µM
CC(=O)O[C@@H]1C[C@]2(C)[C@H]3CC=C4[C@@H]5CC(C)(C)CC[C@]5(C(=O)O)CC[C@@]4(C)[C@]3(C)CC[C@H]2C(C)(C)[C@H]1O | FRET | - | >1200 µg/mL
O=c1c(OC2O[C@@H](O)[C@H](O)[C@H](O)[C@H]2O)c(-c2ccc(O)cc2)oc2cc(O)cc(O)c12 | HPLC | - | >300 µM
CC(C)c1ccccc1Sc1c(O)cc(-c2cccc(OCc3ccccc3)c2)oc1=O | HPLC | pH 4.7 | 0.083 µM
COc1cc(CN2C(=O)N(Cc3ccc(O)c(OC)c3)N(C(=O)CCc3ccoc3)C[C@@H](O)[C@H]2Cc2ccccc2)ccc1O | fluorescence | - | <0.0005 µM
CCOC(=O)c1cn(CC(O)CSc2ccccc2)cc1-c1ccccc1 | - | - | >200 µM
CCCCCC(=O)O[C@H]1CC[C@]2(C)[C@H]3CC=C4[C@@H]5CC(C)(C)CC[C@]5(C(=O)OCc5ccccc5)CC[C@@]4(C)[C@]3(C)CC[C@H]2C1(C)C | FRET | - | >1200 µg/mL
COC(=O)[C@H](CC(C)C)NC(=O)C[C@@H]1CC[C@H](NC(=O)[C@H](Cc2ccccc2)NC(=O)OC(C)(C)C)[C@H]1O | absorbance | - | >10 µM
Cc1cc(-c2cc(O)c(Sc3ccccc3C(C)C)c(=O)o2)ccc1OCc1cccnc1 | HPLC | pH 4.7 | 0.087 µM
COC(=O)[C@H](CC(C)C)NC(=O)C[C@@H]1CC[C@@H](O)[C@@H]1NC(=O)[C@H](C)NC(=O)OC(C)(C)C | absorbance | - | >10 µM
CCOC(=O)c1cccn1CC(O)CNc1ccccc1 | - | - | >200 µM
CC(C)c1ccccc1Sc1c(O)cc(-c2ccc(OCC3CCCCC3)cc2)oc1=O | HPLC | pH 4.7 | 9.9 µM
Cc1cccc(C)c1OCC(=O)N[C@@H](Cc1ccccc1)[C@@H](O)C[C@H](Cc1ccccc1)NC(=O)[C@H](C(C)C)N1CCNC1=S | - | - | <0.0005 µM
CC(C)c1ccccc1Sc1c(O)cc(-c2ccc(OCc3ccncc3)cc2)oc1=O | HPLC | pH 4.7 | 0.12 µM
CC(C)=CCc1ccc2c(C3=C(O)C(=O)C(c4c[nH]c5ccccc45)=C(O)C3=O)c[nH]c2c1 | - | - | >0.5 µM
CC(=O)O[C@@H]1C[C@]2(C)[C@H]3CC=C4[C@@H]5CC(C)(C)CC[C@]5(C(=O)OCc5ccccc5)CC[C@@]4(C)[C@]3(C)CC[C@H]2C(C)(C)[C@H]1O | FRET | - | >1200 µg/mL
CCOC(=O)c1cn(CC(O)CNc2ccccc2C)cc1-c1ccccc1 | - | - | >200 µM
COc1ccc(CCC(=O)N2C[C@@H](O)[C@@H](Cc3ccccc3)N(Cc3ccc(O)c(OC)c3)C(=O)N2Cc2ccc(O)c(OC)c2)cc1 | fluorescence | - | <0.0005 µM
Cc1cccc(C)c1OCC(=O)N[C@@H](Cc1ccccc1)[C@@H](O)C[C@H](Cc1ccccc1)NC(=O)[C@H](C(C)C)N1CCCC1=O | - | - | <0.0005 µM
COc1cc(CN2C(=O)N(Cc3ccc(O)c(OC)c3)N(C(=O)CCc3ccc4c(c3)OCO4)C[C@@H](O)[C@H]2Cc2ccccc2)ccc1O | fluorescence | - | <0.0005 µM
CCCC(=O)O[C@H]1CC[C@]2(C)[C@H]3CC=C4[C@@H]5CC(C)(C)CC[C@]5(C(=O)O)CC[C@@]4(C)[C@]3(C)CC[C@H]2C1(C)C | FRET | - | >1200 µg/mL
CC(C)(C)C(=O)OC[C@H]1O[C@@H](Oc2ccccc2)[C@H](O)[C@@H](OC(=O)C(C)(C)C)[C@@H]1O | - | - | >100 µM
CCCCCCCCCCCC(=O)O[C@H]1CC[C@]2(C)[C@H]3CC=C4[C@@H]5CC(C)(C)CC[C@]5(C(=O)O)CC[C@@]4(C)[C@]3(C)CC[C@H]2C1(C)C | FRET | - | >1200 µg/mL
CC(C)C[C@H](NC(=O)[C@@H](NC(=O)CCCCCCCCCCCCCCC(=O)N[C@@H](CC(N)=O)C(=O)N[C@@H](Cc1ccccc1)C(=O)O)C(C)O)C(=O)N[C@H](C(N)=O)C1CCCCC1 | HPLC | - | 3.1 µM
CC(C)(C)NC(=O)c1ccccc1NCC(O)Cn1cc(C(=O)NC(C)(C)C)c(-c2ccccc2)c1 | - | - | 161 µM
CC(C)C[C@H](NC(=O)[C@@H](NC(=O)CCCCCCCCCCCCCCC(=O)N[C@@H](CC(N)=O)C(=O)N[C@@H](CC1CCCCC1)C(=O)O)C(C)O)C(=O)N[C@@H](Cc1cc(I)c(Oc2cc(I)c(O)c(I)c2)c(I)c1)C(N)=O | HPLC | - | 0.24 µM
Cc1nc(COc2ccc(-c3cc(O)c(Sc4ccccc4C(C)C)c(=O)o3)cc2)cs1 | HPLC | pH 4.7 | 0.108 µM
CSCC[C@H](NC(=O)CCCCCCCCCCCCCCC(=O)N[C@@H](CC(C)C)C(=O)N[C@@H](CC(C)C)C(=O)N[C@@H](Cc1ccccc1)C(N)=O)C(=O)N[C@@H](Cc1ccccc1)C(=O)O | HPLC | - | 0.65 µM
Cc1cccc(C)c1OCC(=O)N[C@@H](Cc1ccccc1)[C@@H](O)C[C@H](Cc1ccccc1)NC(=O)[C@H](C(C)C)N1CCNC1=O | - | - | <0.0005 µM
COc1ccc([C@H]2CC(=O)c3c(O)c(C)c(O)c(C)c3O2)cc1 | HPLC | - | 64.3 µM
O=C(N[C@@H](Cc1ccccc1)C(=O)NCC[C@@H](CO)NC(=O)[C@H](Cc1ccccc1)NC(=O)c1ccccn1)c1ccccn1 | HPLC | - | 3.9 µM
C[C@H]1[C@H](C)CC[C@]2(C(=O)O)CC[C@]3(C)C(=CC[C@@H]4[C@@]5(C)CC[C@H](O)C(C)(C)[C@@H]5CC[C@]43C)[C@H]12 | HPLC | - | 8.9 µM
Cc1ccc(C(C)(C)C)c(Sc2c(O)cc(-c3ccc(OCc4csc(C)n4)cc3)oc2=O)c1 | HPLC | pH 4.7 | 0.04 µM
COc1ccc(C(O)C(C)Oc2ccc([C@H]3O[C@H](c4ccc(OC(C)C(O)c5ccc(OC)c(OC)c5)c(OC)c4)[C@H](C)[C@H]3C)cc2OC)cc1OC | HPLC | - | 38.9 µM
CC1(C)CC[C@]2(C(=O)OCc3ccccc3)CC[C@]3(C)C(=CC[C@@H]4[C@@]5(C)C[C@@H](O)[C@H](O)C(C)(C)[C@@H]5CC[C@]43C)[C@@H]2C1 | FRET | - | >1200 µg/mL
CC(C)C[C@H](NC(=O)[C@@H](NC(=O)CCCCCCCCCCCCCCC(=O)N[C@@H](CC(N)=O)C(=O)N[C@@H](Cc1cccc2ccccc12)C(=O)O)C(C)C)C(=O)N[C@@H](Cc1ccccc1)C(N)=O | HPLC | - | 0.38 µM
CC[C@H](C)[C@H](NC(=O)OC(C)(C)C)C(=O)N[C@@H]1[C@H](CC(=O)N[C@@H](CC(C)C)C(=O)OC)CC[C@H]1O | absorbance | - | >10 µM
CCC(=O)O[C@@H]1C[C@]2(C)[C@H]3CC=C4[C@@H]5CC(C)(C)CC[C@]5(C(=O)O)CC[C@@]4(C)[C@]3(C)CC[C@H]2C(C)(C)[C@H]1O | FRET | - | >1200 µg/mL
O=C(N[C@@H](Cc1ccccc1)C(=O)NCC[C@@H](CO)NC(=O)[C@H](Cc1ccccc1)NC(=O)c1cc2ccccc2[nH]1)c1cc2ccccc2[nH]1 | HPLC | - | 2.9 µM
Cc1c(O)c(C)c2c(c1O)C(=O)C[C@@H](c1ccccc1)O2 | HPLC | - | 105.9 µM
CC(=O)NC(C(=O)NC[C@H]1O[C@@H](Oc2ccccc2)[C@H](O)[C@@H](OCc2ccccc2)[C@@H]1O)C(C)C | - | - | >100 µM
O=C(N[C@@H](Cc1ccccc1)C(=O)NC[C@@H](CO)NC(=O)[C@H](Cc1ccccc1)NC(=O)OCC1c2ccccc2-c2ccccc21)OCC1c2ccccc2-c2ccccc21 | HPLC | - | 0.43 µM
CC(C)c1ccccc1Sc1c(O)cc(-c2ccc(OCC#N)cc2)oc1=O | HPLC | pH 4.7 | 0.091 µM
CCC(=O)O[C@@H]1C[C@]2(C)[C@H]3CC=C4[C@@H]5CC(C)(C)CC[C@]5(C(=O)OCc5ccccc5)CC[C@@]4(C)[C@]3(C)CC[C@H]2C(C)(C)[C@H]1O | FRET | - | >1200 µg/mL
CCOC(=O)c1cn(CC(O)CNc2ccccc2N)cc1-c1ccccc1 | - | - | >200 µM

6 of the rows above, restated:

smiles,read by,conditions,value
CCOC(=O)c1cccn1CC(O)CNc1ccccc1,-,-,>200 µM
COc1ccc(C(O)C(C)Oc2ccc([C@H]3O[C@H](c4ccc(OC(C)C(O)c5ccc6c(c5)OCO6)c(OC)c4)[C@H](C)[C@H]3C)cc2OC)cc1OC,HPLC,-,>125 µM
CSCC[C@H](NC(=O)CCCCCCCCCCCCCCC(=O)N[C@@H](CC(C)C)C(=O)N[C@@H](CC(C)C)C(=O)N[C@@H](Cc1ccccc1)C(N)=O)C(=O)N[C@@H](Cc1ccccc1)C(=O)O,HPLC,-,0.65 µM
CCOC(=O)c1cn(CC(O)CNc2ccccc2C)cc1-c1ccccc1,-,-,>200 µM
O=c1c(OC2O[C@@H](O)[C@H](O)[C@H](O)[C@H]2O)c(-c2ccc(O)cc2)oc2cc(O)cc(O)c12,HPLC,-,>300 µM
O=C(N[C@@H](Cc1ccccc1)C(=O)NCC[C@@H](CO)NC(=O)[C@H](Cc1ccccc1)NC(=O)c1ccccn1)c1ccccn1,HPLC,-,3.9 µM

An empty or dashed field is not shown. ICn: concentration for n% inhibition.